activity, negative = active data for 58 molecules are collected here from PubChem BioAssay AID602313 (National Center for Advancing Translational Sciences (NCATS), 2012).

Only a part is listed here, and it is no random draw. Calls of active or inactive are those of the source. The call rests on the fitted dose curve; in most records, active means well fitted inhibition curve with a large enough effect; inconclusive means small, poorly fitted or top-dose-only effect; inactive means flat fitted curve, though single readings scatter.

This test is described as follows: qHTS for Inhibitors of Vif-A3F Interactions: qHTS. Further: % of control where 0% means no effect; nearly all actives have a fitted effect of over 65% in size. Conditions: HeLa A3F-eYFP + Vif (tagged APOBEC3F with the HIV-1 protein that degrades it), YFP fluorescence increase; at 46.1 µM (top of the series). From the text:
The recent discovery and characterization of host restriction factors, which provide a potent defense to invading retroviruses, has provided new targets for antiviral drug development. APOBEC3G (A3G) and APOBEC3F (A3F) are potent cytidine deaminases that block HIV-1 replication; HIV-1 expresses the Vif protein, which counteracts A3G and A3F by binding to them and inducing their proteasomal degradation. The Vif-A3G and Vif-A3F interactions provide two potential targets for development of small molecules which can interfere with the ability of Vif to degrade A3G or A3F. […] To identify inhibitors that can interfere with Vif mediated degradation of A3G and A3F, we have developed Hela cell lines that stably express A3G or A3F tagged with eYFP at the C-terminal end (A3G-eYFP or A3F-eYFP, respectively) and Vif. In the absence of an inhibitor, Vif induces degradation of A3G-eYFP and A3F-eYFP, and the cells are not fluorescent. In the presence of an inhibitor, it is expected that Vif will be unable to degrade A3G-eYFP and/or A3F-eYFP, resulting in an increase in yellow fluorescence. In this assays Vif A3F was screened against the Molecular Library Small Molecule Repository (MLSMR). NIH Chemical Genomics Center [NCGC] NIH Molecular Libraries Probe Centers Network [MLPCN] MLPCN Grant: MH093245 Assay Submitter (PI): Vinay Pathak, National Cancer Institute
5 uL of 700 cells/well of A3F-YFP cells are dispensed into black, clear bottom plates. The plates are incubated overnight at 37 deg C. 23 nL of compounds are added by pintool. The plates are incubated overnight at 37 deg C and then read on the TTP Acumen (Ex 488/ Em 500-530).
`CP(=O)(Nc1ccc2c(c1)OCCO2)Oc1ccccc1` (stereo not drawn): the activity, negative = active is inactive: 1.72%. Regarding `CCOP(C)(=S)SCC(=O)NC(C)(CC)C(=O)O` (stereo not drawn), the activity, negative = active is inactive: 7.35%. Turning to `CP(=O)(Nc1ccc(SC(F)(F)F)cc1)Oc1ccc(F)cc1` (stereo not drawn), the activity, negative = active is inactive: 1.85%. Take `Cc1c(C(c2ccc3c(c2)OCO3)c2c(C)n(C)n(-c3ccccc3)c2=O)c(=O)n(-c2ccccc2)n1C.O=[N+]([O-])c1cc([N+](=O)[O-])c(O)c([N+](=O)[O-])c1`: the activity, negative = active was inactive: 1.08%. For `Cc1cc(-c2cccc3ccccc23)c(C)cn1.O=[N+]([O-])c1cc([N+](=O)[O-])c(O)c([N+](=O)[O-])c1`, the activity, negative = active is inactive: -9.16%. For the molecule `O=[N+]([O-])c1ccc(OP2(=O)COCCO2)cc1` (stereo not drawn), the activity, negative = active was inactive: -2.98%. With `COc1ccc(NP(C)(=O)Oc2ccccc2OC)cc1` (stereo not drawn), the activity, negative = active is inactive: -0.777%. The result for `CN(C)CCOC(=O)C(O)(c1ccccc1)C1CCCCC1` (stereo not drawn) reads inactive: -2.71%; that for `COc1ccc(OP(C)(=O)Nc2cccc(Br)c2)cc1` (stereo not drawn), inactive: -1.2%; that for `CCCCCOc1ccc(NP(C)(=O)Oc2ccc(Cl)cc2Cl)cc1` (stereo not drawn), inactive: -0.985%. For `CP(=O)(Nc1ccccc1)Oc1ccc(F)cc1` (stereo not drawn), the activity, negative = active is inactive: 2.75%. Take `CCN(CC)CCCOC(=O)C(O)(c1ccccc1)C1CCCCC1` (stereo not drawn): the activity, negative = active is inactive: 4.81%. For `Cc1c([N+](=O)[O-])cc([N+](=O)[O-])c(Br)c1[N+](=O)[O-]`, the activity, negative = active is inactive: 2.71%. Consider `COc1ccc(OP(C)(=O)Nc2ccc(SC(F)(F)F)cc2)cc1` (stereo not drawn), for which the activity, negative = active is inactive: -7.71%. In the case of `CCOC(=O)c1ccc(NP(C)(=O)Oc2ccc(F)cc2)cc1` (stereo not drawn), the activity, negative = active is inactive: -1.17%.

As for `O=C(OCCN1CCN(CCOCc2ccccc2)CC1)C(O)(c1ccccc1)c1ccccc1`, the activity, negative = active is inactive: 3.58%. As to `CC(C)c1ccc(OP(C)(=O)Nc2ccc(SC(F)(F)F)cc2)cc1` (stereo not drawn), the activity, negative = active was inactive: -12.9%.

Turning to `CP(=O)(Nc1ccccc1F)Oc1ccccc1` (stereo not drawn), the activity, negative = active is inactive: -9.21%. As for `Cc1cc(C)cc(OP(C)(=O)Nc2ccccn2)c1` (stereo not drawn), the activity, negative = active was inactive: -0.836%.

With `CP(=O)(Nc1cccc(Br)c1)Oc1ccccc1` (stereo not drawn), the activity, negative = active is inactive: 0.236%. The result for `Cc1ccc(C)c(NP(C)(=O)Oc2ccccc2)c1` (stereo not drawn) reads inactive: -9.31%; that for `Cc1cc(C)cc(OP(C)(=O)Nc2ccc(C)cc2C)c1` (stereo not drawn), inactive: -2.36%; that for `CCOC(=O)c1ccc(NP(C)(=O)Oc2cc(C)cc(C)c2)cc1` (stereo not drawn), inactive: -7.65%.

`COc1ccccc1OP(C)(=O)Nc1cccc(Br)c1` (stereo not drawn): the activity, negative = active is inactive: 0.322%. Turning to `CC1=NCCc2c1[nH]c1ccccc21.O=[N+]([O-])c1cc([N+](=O)[O-])c(O)c([N+](=O)[O-])c1`, the activity, negative = active is inactive: -19.2%. Regarding `CCCOc1ccc(NP(C)(=O)Oc2ccc(Cl)cc2)cc1` (stereo not drawn), the activity, negative = active is inactive: -17%. With `CP(=O)(Nc1ccc(SC(F)(F)F)cc1)Oc1ccccc1` (stereo not drawn), the activity, negative = active is inactive: -10.3%. Consider `COc1ccccc1OP(C)(=O)Nc1c(C)cccc1C` (stereo not drawn), for which the activity, negative = active was inactive: -2.24%. For the molecule `CN1CCCCC1COC(=O)C1(O)c2ccccc2CCc2ccccc21` (stereo not drawn), the activity, negative = active was inactive: 1.87%. Consider `CC1=C2N=C(C=C3N=C(C(C)=C4[N-][C@@](C)([C@@H]5N=C1[C@](C)(CCC(=O)NC[C@@H](C)OP(=O)([O-])O[C@H]1[C@@H](O)[C@@H](n6cnc7cc(C)c(C)cc76)O[C@@H]1CO)[C@H]5CC(N)=O)[C@@](C)(CC(N)=O)[C@@H]4CCC(N)=O)[C@@](C)(CC(N)=O)[C@@H]3CCC(N)=O)C(C)(C)[C@@H]2CCC(N)=O.[C-]#N.[Co+3]`, for which the activity, negative = active was inactive: -1.37%. The value for `O=[N+]([O-])c1cc([N+](=O)[O-])c(Nc2nnnn2CCO)c([N+](=O)[O-])c1` was inactive: -3.16%. As for `Cc1nc2ccc3ccccc3c2s1.O=[N+]([O-])c1cc([N+](=O)[O-])c(O)c([N+](=O)[O-])c1`, the activity, negative = active was inactive: -8.03%.

For the molecule `O=[N+]([O-])c1cc([N+](=O)[O-])c(-c2cnn(-c3ccccc3)c2)c([N+](=O)[O-])c1`, the activity, negative = active was inactive: 7.57%.

For the molecule `O=[N+]([O-])c1cc([N+](=O)[O-])c(-n2nnc3ccccc32)c([N+](=O)[O-])c1`, the activity, negative = active is inactive: 3.88%. The value for `CP(=O)(Nc1ccccn1)Oc1ccc(Cl)cc1` (stereo not drawn) was inactive: -5.96%. For `CCOP(C)(=S)SCC(=O)NC(C)C(=O)O` (stereo not drawn), the activity, negative = active was inactive: -1.04%.

As to `CCOC(=O)c1ccc(NP(C)(=O)Oc2ccc(OC)cc2)cc1` (stereo not drawn), the activity, negative = active was inactive: -0.127%.

Take `O=[N+]([O-])c1cc([N+](=O)[O-])c(O)c([N+](=O)[O-])c1.c1ccc(Oc2ccncc2)cc1`: the activity, negative = active is inactive: -9.74%. With `Cc1cc(C)cc(OP(C)(=O)Nc2ccc(SC(F)(F)F)cc2)c1` (stereo not drawn), the activity, negative = active was inactive: 13.4%. As to `CP(=O)(NC(=O)Nc1ccccc1)Oc1ccccc1` (stereo not drawn), the activity, negative = active was inactive: -1.4%. Consider `CCc1ccc(OP(C)(=O)N2CCN(c3ccc([N+](=O)[O-])cc3)CC2)cc1` (stereo not drawn), for which the activity, negative = active is inactive: 0.359%. For the molecule `CP(=O)(Oc1ccccc1)OC(c1ccccc1)C(F)(F)F` (stereo not drawn), the activity, negative = active is inactive: 14.1%. Turning to `Cc1cccc(C)c1OP(C)(=O)Nc1ccc(SC(F)(F)F)cc1` (stereo not drawn), the activity, negative = active was inactive: 2.47%. Turning to `CP(=O)(Nc1ccc(SC(F)(F)F)cc1)Oc1ccc(Cl)cc1` (stereo not drawn), the activity, negative = active was inactive: -4.24%. Take `COc1ccccc1OP(C)(=O)Nc1ccccc1` (stereo not drawn): the activity, negative = active was inactive: 13%. For the molecule `CP(=O)(Nc1ccccc1Br)Oc1ccccc1` (stereo not drawn), the activity, negative = active was inactive: 8.68%.

With `CP(=S)(Nn1cnnc1)Oc1ccccc1` (stereo not drawn), the activity, negative = active is inactive: -9.84%. Regarding `COc1ccc(OP(C)(=O)Nc2cccc(F)c2)cc1` (stereo not drawn), the activity, negative = active is inactive: -21.7%.

With `COc1ccccc1OP(C)(=O)Nc1cc(Cl)ccc1C` (stereo not drawn), the activity, negative = active is inactive: 4.42%. The value for `Cc1cc(C)cc(OP(C)(N)=O)c1` (stereo not drawn) was inactive: 5.9%. On to `CCOC(=O)c1ccc(NP(C)(=O)Oc2ccccc2)cc1` (stereo not drawn), for which the activity, negative = active is inactive: 1.74%. Take `Cc1ccc(NP(C)(=O)Oc2ccccc2)c(C)c1` (stereo not drawn): the activity, negative = active was inactive: -1.27%. As to `COc1ccccc1OP(C)(=O)Nc1ccc(C)cc1` (stereo not drawn), the activity, negative = active was inactive: 0.519%. Consider `Cc1cccc(C)c1OP(C)(N)=O` (stereo not drawn), for which the activity, negative = active was inactive: -1.62%. Consider `CC(C)(C)c1ccc(OP(C)(=O)Nc2ccc(SC(F)(F)F)cc2)cc1` (stereo not drawn), for which the activity, negative = active is inactive: -5.5%. Regarding `O=[N+]([O-])c1ccc2c(c1)C=Nc1ccccc1O2`, the activity, negative = active is inactive: 0.344%. The value for `O=[N+]([O-])c1cc([N+](=O)[O-])c(Nc2cccnc2)c([N+](=O)[O-])c1` was inactive: -0.34%; that for `CCN(CC)CCCOC(=O)C(O)(c1ccccc1)c1ccccc1` was inactive: 4.72%.
